How the values were obtained:
influenza virus = test system: influenza virus; parameters: species or system Kunming mice; conditions: mouse, in vivo
parainfluenza virus = type: in vivo, Kunming mice; conditions: mice infected with parainfluenza virus, treated 5 days, different concentrations, P<0.01

COc1cc(C2OCC3C(c4ccc(OC5OC(C(=O)O)C(O)C(O)C5O)c(OC)c4)OCC23)ccc1O (centres unmarked) [Compound I]
lung tissue virus hemagglutination titers compared with the infection model group (in words) (influenza virus): slightly decreased
lung tissue virus hemagglutination titers compared with the infection model group (in words) (parainfluenza virus): slightly decreased

From patent US10407455B2, “Phillygenin glucuronic acid derivative as well as preparation method and application thereof” (priority 2015, dated 2019)
